Taken from: PubChem BioAssay AID1224833 (University of Georgia, 2016)

Screen: 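Human genes whose knock-down alters rotavirus replication in monkey cells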 (primary screen)
Cell system: monkey MA104 kidney cells
Knock-down reagent: siRNA pool against human genes, 50 nM
Duration: 48 h knock-down before infection; read 24 h after infection
Challenge: infection with rotavirus strain RV3 two days after transfection; infectious dose for this stage not given
Measurement: 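z-score of rotavirus antigen signal per well, from a fluorescent immunoassay, relative to non-targeting control wells on the same plate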
Reading the numbers: z-score vs non-targeting control: higher = more rotavirus replication than with non-targeting control
Call rule: In these data the active calls have z-score vs non-targeting control at about -1 or lower, or at about 1 or higher
Meaning of the calls: active = z-score beyond 1 either way; inactive = z-score within 1 of zero
Shown is a random part of about 12,000 reagents tested. Of all reagents, about 5,600 (46%) got an active call. 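Active calls cover z-scores past 1 in both directions, so they include lowered as well as raised rotavirus replication.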 Reagent sequences are not shown.

target gene | z-score vs non-targeting control | call
SNX3 (GeneID 8724) | -0.75 | inactive
CSTL1 (GeneID 128817) | -0.0942 | inactive
TMEM268 (GeneID 203197) | -0.226 | inactive
NEB (GeneID 4703) | -0.659 | inactive
ZNF442 (GeneID 79973) | -1.09 | active
PDE4D (GeneID 5144) | 0.97 | inactive
RGS18 (GeneID 64407) | -0.0618 | inactive
CLPSL2 (GeneID 389383) | 0.622 | inactive
SUCLG1 (GeneID 8802) | -0.863 | inactive
APEX2 (GeneID 27301) | -0.956 | inactive
ACOX2 (GeneID 8309) | -2.6 | active
ISCA2 (GeneID 122961) | -0.353 | inactive
MMP16 (GeneID 4325) | -1.16 | active
CYLC2 (GeneID 1539) | 0.521 | inactive
KLF9 (GeneID 687) | 1.38 | active
RHCG (GeneID 51458) | -1.53 | active
MIP (GeneID 4284) | -2.68 | active
STON1 (GeneID 11037) | 0.269 | inactive
MPIG6B (GeneID 80739) | -0.143 | inactive
PPIG (GeneID 9360) | 1.18 | active
SPACA5 (GeneID 389852) | -1.01 | active
ARFRP1 (GeneID 10139) | -0.971 | inactive
HLA-DRA (GeneID 3122) | -2.25 | active
NCMAP (GeneID 400746) | 1.12 | active
TOMM20L (GeneID 387990) | 0.941 | inactive
SEMA3A (GeneID 10371) | -0.13 | inactive
ALYREF (GeneID 10189) | 0.451 | inactive
CLRN1 (GeneID 7401) | 1.52 | active
SFTPA1 (GeneID 653509) | -0.292 | inactive
PLIN3 (GeneID 10226) | 0.188 | inactive
DSC3 (GeneID 1825) | -0.518 | inactive
TREML2 (GeneID 79865) | -1.18 | active
PTAFR (GeneID 5724) | 0.622 | inactive
PEX12 (GeneID 5193) | -0.025 | inactive
MMAB (GeneID 326625) | 0.677 | inactive
LRP1 (GeneID 4035) | -1.08 | active
UPK1A (GeneID 11045) | -1.87 | active
PRAMEF2 (GeneID 65122) | 1.84 | active
CNTN6 (GeneID 27255) | -2.27 | active
GTF2H2 (GeneID 2966) | 1.27 | active
OR2K2 (GeneID 26248) | -0.629 | inactive
PM20D2 (GeneID 135293) | -0.685 | inactive
ENOX2 (GeneID 10495) | 1.04 | active
ATP6V1A (GeneID 523) | -1.88 | active
AIMP2 (GeneID 7965) | -0.959 | inactive
